Target: human Kv1.3 (human, UniProt P22001 1-575)
Assay: cell-based or functional assay

B1: Monovalent Fc/Fc-ShK(1-35 Q16K) heterodimer (Fc fusion)
chain 1: ERKVECPPCPAPPVAGPSVFLFPPKPKDTLMISRTPEVTCVVVDVSHEDPEVQFNWYVDGVEVHNAKTKPREEQFNSTFRVVSVLTVVHQDWLNGKEYKCKVSNKGLPAPIEKTISKTKGQPREPQVYTLPPSREEMTKNQVSLTCLVKGFYPSDIAVEWESNGQPENNYKTTPPMLDSDGSFFLYSKLTVDKSRWQQGNVFSCSVMHEALHNHYTQKSLSLSPGK
chain 2: ERKVECPPCPAPPVAGPSVFLFPPKPKDTLMISRTPEVTCVVVDVSHEDPEVQFNWYVDGVEVHNAKTKPREEQFNSTFRVVSVLTVVHQDWLNGKEYKCKVSNKGLPAPIEKTISKTKGQPREPQVYTLPPSREEMTKNQVSLTCLVKGFYPSDIAVEWESNGQPENNYKTTPPMLDSDGSFFLYSKLTVDKSRWQQGNVFSCSVMHEALHNHYTQKSLSLSPGKGGGGSGGGGSRSCIDTIPKSRCTAFKCKHSMKYRLSFCRKTCGTC
  Kv1.1/Kv1.3 Selectivity Ratio by PX: 1220 ratio
  Potency Relative to ShK (WB, IL2): 2.39 ratio

B2: Bivalent Fc-ShK(1-35 Q16K) homodimer (Fc fusion)
chain: ERKVECPPCPAPPVAGPSVFLFPPKPKDTLMISRTPEVTCVVVDVSHEDPEVQFNWYVDGVEVHNAKTKPREEQFNSTFRVVSVLTVVHQDWLNGKEYKCKVSNKGLPAPIEKTISKTKGQPREPQVYTLPPSREEMTKNQVSLTCLVKGFYPSDIAVEWESNGQPENNYKTTPPMLDSDGSFFLYSKLTVDKSRWQQGNVFSCSVMHEALHNHYTQKSLSLSPGKGGGGSGGGGSRSCIDTIPKSRCTAFKCKHSMKYRLSFCRKTCGTC
  Potency Relative to ShK (WB, IL2): 27.6 ratio

From patent publication US20120195879A1 (published 2012)
